Results: paper PMC7867265, “Phosphofructokinases A and B from Mycobacterium tuberculosis Display Different Catalytic Properties and Allosteric Regulation” (International Journal of Molecular Sciences, 2021)

How the values were obtained:
Test in all cases: purified protein
Details in all cases: pH 7.4; 37.0 °C
[1] = tested on: Nc1ncnc2c1ncn2[C@@H]1O[C@H](COP(=O)(O)OP(=O)(O)O)[C@@H](O)[C@H]1O
[2] = tested on: Nc1ncnc2c1ncn2[C@@H]1O[C@H](COP(=O)(O)OP(=O)(O)OP(=O)(O)O)[C@@H](O)[C@H]1O
[3] = tested on: Nc1nc2c(ncn2[C@@H]2O[C@H](COP(=O)(O)OP(=O)(O)O)[C@@H](O)[C@H]2O)c(=O)[nH]1
[4] = tested on: O=c1[nH]cnc2c1ncn2[C@@H]1O[C@H](COP(=O)(O)OP(=O)(O)O)[C@@H](O)[C@H]1O

| Substance | Km [1] | Vmax [1] | Vmax/Km [1] | K0.5 [2] | Vmax [2] | Vmax/Km [2] | Km [3] | Vmax [3] | Vmax/Km [3] | Km [4] | Vmax [4] | Vmax/Km [4] |
| --- | --- | --- | --- | --- | --- | --- | --- | --- | --- | --- | --- | --- |
| Pfk B (Mycobacterium tuberculosis H37Rv) | 12900 ± 3000 µM | 3.6 µmol/min/mg | 140 µL/min/mg | 0.052 ± 0.005 mM | 0.8 µmol/min/mg | 15000 µL/min/mg | 280 ± 30 µM | 0.32 µmol/min/mg | 1100 µL/min/mg | 270 ± 50 µM | 0.37 µmol/min/mg | 1400 µL/min/mg |
| Pfk A (Mycobacterium tuberculosis H37Rv) | – | – | – | 1.0 ± 0.2 mM | – | – | – | – | – | – | – | – |
